Test results published in article PMC9916836.

Biological target: T1, UvrY-His6 (UniProt P66798)
T1 sequence (looked up, limits assumed): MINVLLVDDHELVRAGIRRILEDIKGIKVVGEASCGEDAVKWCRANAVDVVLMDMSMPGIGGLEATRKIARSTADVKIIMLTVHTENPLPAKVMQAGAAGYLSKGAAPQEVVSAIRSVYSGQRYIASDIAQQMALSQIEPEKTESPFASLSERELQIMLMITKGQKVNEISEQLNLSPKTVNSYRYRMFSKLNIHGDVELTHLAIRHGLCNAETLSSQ
Assay: EMSA
Conditions: 20 mM acetyl phosphate, 3 mM MgCl2, 0-2 uM protein; recombinant protein; probe letters rebuilt from the primers and the genome

“CGCTTACCCCAATCACTTACTTATGTAAGCTCCTGGGGATTCACTCGCTTGCCGCCTTCCTGTAACTCGAATTAAGTAGAGTATAGTGAAACGGTTCAGCTTGGTTTTTATTCTGTTTTATTTGTTTATGCAATGAGATCTATCTTATAAAGAGAAACGCTTAACTAAATGGAAATGCAATTATTAAAGTCGTTTGTTAACGAGATGATTTTCTTCTATATCATTGATTTTAAATGGATTTTAAAAATATATGATTTTTTTGTTGACATTTAATGATAATGTATTTTACACATTAGAAAAAAGAGAATAATAACATTTTAAGGTGGTTGTTTGATGAAATAGATGTGTCCTAATTTGATAGATAAACGTTATCTCACATAATTTATATCATTTGATTAATTGTTGGTCCTTCCTGATAAGGTCGCTAATAGCTTAAAATATTAAAGCATGCGGAGATTATTTATTATGA (double strand) [PLEE1 (ler promoter)]”: binds.

Construct, isoform or probe ends are uncertain for at least one entry. Where a protein sequence is shown, tags need not be part of it.
